Results of unrelated studies side by side (data: NIAID ChemDB).

All rows: tests on isolated targets; species: HIV-1; target: Integrase; method: 3′ processing; read-out: IC50

Neighbouring rows are from separate reports. ICn is the concentration giving n% inhibition. An empty or dashed field is not shown.

SMILES	strain	changes	value
O=C1C(=O)N(Cc2ccc([N+](=O)[O-])cc2)c2ccccc21	-	-	500 µM
Cc1cc2c(cc1Cl)SC(C(=O)c1ccc(Br)cc1)=NS2(=O)=O	-	INTG-C65S	65 µM
NCCCCCCNC(=O)c1csc(NC(=O)c2csc(NC(=O)CCCCCN)n2)n1	-	-	38 µM
O=C(O)/C=C/c1ccc(N=Nc2c(S(=O)(=O)O)cc3cc(NC(=O)C(=O)Nc4ccc5c(O)c(N=Nc6ccc(/C=C/C(=O)O)cc6)c(S(=O)(=O)O)cc5c4)ccc3c2O)cc1	-	-	5 µM
Nc1ncnc2c1ncn2[C@@H]1CO[C@H](COP(=O)(O)O[C@H]2C[C@H](n3cnc4c(N)ncnc43)O[C@@H]2COP(=O)(O)O)[C@H]1O	-	-	>1000 µM
O=C(/C=C/c1ccc(O)c(O)c1)NCCC(NC(=O)/C=C/c1ccc(O)c(O)c1)C(=O)O	-	-	2.3 µM
O=C1NC(=O)C(c2ccc(C(=O)O)o2)=C1c1ccc(C(=O)O)o1	-	-	116 µM
[N-]=[N+]=NC[C@H]1O[C@@H](n2cnc3c(N)ncnc32)[C@H](O)[C@@H]1CC(=O)O	NL4-3	-	>10 µM
CCOC(=O)c1nc(NC(=O)c2cc(NC(=O)c3cc(NC(=O)c4nc(NC(=O)CCCN)cn4C)cn3C)cn2C)cn1C	-	-	33 µM
Cc1cc(Cl)cc2c1S(=O)(=O)N=C(C(=O)c1ccc(Cl)cc1)S2	-	-	27 µM
CN(C)CCCNC(=O)c1cc(NC(=O)c2cc(NC(=O)c3cc(NC(=O)CCNC(=O)c4cc(NC(=O)c5cc(NC(=O)c6cc(NC(=O)CCCN)cn6C)cn5C)cn4C)cn3C)cn2C)cn1C	-	-	1.4 µM
Cn1cc(NC(=O)c2cc(NC(=O)c3cc(NC=O)cn3C)cn2C)cc1C(=O)NCCC(=N)N	-	-	3.5 µM
CC(C)(C)c1nc(C(=O)NCc2ccc(F)cc2)c(O)c(=O)n1CCCNC(=O)C1CC1	-	-	>20 µM
Cc1cc(S(=O)(=O)Nc2nc(=O)c3ccccc3n2C)c(SCOc2ccccc2)cc1Cl	-	-	>100 µM
O=C(O)CC1C/C(=C\c2cc(O)c(O)c(O)c2)C(=O)/C(=C/c2cc(O)c(O)c(O)c2)C1	-	-	0.2 µM
c1cnc2c(CSc3nc4ccccc4s3)cccc2c1	-	-	>1000 µM
O=C(C1=NS(=O)(=O)c2ccc(Cl)cc2S1)c1ccc(Cl)c(Cl)c1	-	INTG-C65S	47 µM
COC(=O)[C@H](CCCCNC(=O)c1cc(O)c(O)c(O)c1)NC(=O)c1cc(O)c(O)c(O)c1	-	-	>10 µM
Cc1cc(=O)n(-c2cccc([N+](=O)[O-])c2)n1C(=O)c1ccco1	-	-	>1000 µM
O=C(/C=C/c1ccc(O)c(O)c1)OCCc1ccccc1N=C=S	-	C65S	7 µM
Cc1cc(Cl)cc2c1S(=O)(=O)N=C(C(=O)c1ccc(Cl)c(Cl)c1)S2	-	INTG-C65S	8 µM
COC(=O)c1cc(NC(=O)c2nc(NC(=O)c3cc(NC(=O)c4cc(NC(=O)CCCNC(=O)c5nc(NC(=O)c6cc(NC(=O)c7cc(NC(=O)c8nc(NC(=O)CCCN)cn8C)cn7C)cn6C)cn5C)cn4C)cn3C)cn2C)cn1C	-	-	30 µM
COc1ccc(C(=O)C2=NS(=O)(=O)c3cc(C)c(Cl)cc3S2)cc1	-	-	30 µM
C/C=C(/CC[C@@H](C)[C@H]1CC[C@H]2[C@@H]3CC=C4C[C@@H](O)CC[C@]4(C)[C@H]3CC[C@]12C)C(C)C	-	-	>100 µM
CN(C)CCCNC(=O)c1csc(NC(=O)c2csc(NC(=O)c3csc(NC(=O)c4csc(NC(=O)CCCCCN)n4)n3)n2)n1	-	-	0.3 µM
Cc1cc2c(cc1Cl)SC(C(=O)c1ccccc1)=NS2(=O)=O	-	INTG-C65S	90 µM
CC(C)(C)c1nc(C(=O)NCc2ccc(F)cc2)c(O)c(=O)n1CCCNS(=O)(=O)C1CC1	-	-	>20 µM
O=C(/C=C/c1ccc(Cl)c(Cl)c1)/C=C/c1ccc(Cl)c(Cl)c1	-	-	>100 µM
O=C(Nc1ccc2c(O)c(N=Nc3c(F)c(F)c(C(=O)O)c(F)c3F)c(S(=O)(=O)O)cc2c1)Nc1ccc2c(O)c(N=Nc3c(F)c(F)c(C(=O)O)c(F)c3F)c(S(=O)(=O)O)cc2c1	-	-	0.2 µM
O=C(O)c1ccc(C2=C(c3ccc(C(=O)O)o3)C(=O)N(c3ccc(O)cc3)C2=O)o1	-	-	5.3 µM
Cn1cc(C(=O)O)c(=O)c2cc(N)c(N3CCN(c4ccccn4)CC3)cc21	-	-	60 µM
CC(=O)/C=C/c1ccc(N=Nc2c(S(=O)(=O)O)cc3cc(NC(=O)Nc4ccc5c(O)c(N=Nc6ccc(/C=C/C(C)=O)cc6)c(S(=O)(=O)O)cc5c4)ccc3c2O)cc1	-	-	2.7 µM
Cc1cc(S(=O)(=O)NC2=NC3C=CSC3C(=O)N2N)c(S)cc1Cl	-	-	35 µM
O=C(/C=C/c1ccc(O)c(O)c1)Oc1cccc2c(N=C=S)cccc12	-	C56S	20 µM
C=CCn1c(=O)c(C(=O)Nc2ccccc2OC)c(O)c2ccccc21	-	-	>100 µM
CN1C/C(=C\c2ccc([N+](=O)[O-])c(O)c2)C(=O)/C(=C/c2ccc([N+](=O)[O-])c(O)c2)C1	-	-	>100 µM
O=C1C(=O)c2cc(-c3cc(O)c(O)c(O)c3)ccc2C(Oc2c(O)cc(-c3ccc4cc(O)c(O)c(O)c4c3)cc2O)=C1O	-	-	0.45 µM
CN(C)CCCn1cc(C(=O)O)c(=O)c2ccc(Nc3nc(-c4cc(-c5ccccc5)no4)cs3)cc21	-	-	0.297 µM
OC1/C(=C/c2ccc(Cl)c(Cl)c2)CCC/C1=C\c1ccc(Cl)c(Cl)c1	-	-	>100 µM
Cc1cnc2c(ccc3c(C)c(C)cnc32)c1C	-	-	>100 µM
O=C(O)/C=C/c1ccc(N=Nc2c(S(=O)(=O)O)cc3cc(S(=O)(=O)O)c(N=Nc4ccc(/C=C/C(=O)O)cc4)c(O)c3c2O)cc1	-	-	1.8 µM
O=S(=O)(Cc1cccc2cccnc12)c1nc2ccccc2s1	-	-	>1000 µM
O=C(/C=C/c1cc(O)c(O)c(O)c1)NCCCC[C@H](NC(=O)/C=C/c1cc(O)c(O)c(O)c1)C(=O)O	-	-	0.81 µM
CC(C)(C)[C@H](NC(=O)OCc1ccccc1)C(=O)N[C@@H](Cc1ccc(OCc2ccccc2)cc1)C(=O)C(F)(F)C(=O)NCc1ccccc1	-	-	21 µM
CCOC(=O)c1nc(NC(=O)c2nc(NC(=O)c3nc(NC(=O)CCCNC(=O)c4nc(NC(=O)c5nc(NC(=O)c6nc(NC(=O)CCCN)cn6C)cn5C)cn4C)cn3C)cn2C)cn1C	-	-	20 µM
Cc1cn([C@H]2C[C@H](O)[C@@H](COP(=O)(O)O[C@H]3[C@H](n4cnc5c(N)ncnc54)CO[C@@H]3COP(=O)(O)O)O2)c(=O)[nH]c1=O	-	-	150 µM
NCCCCCC(=O)Nc1nc(C(=O)Nc2nc(C(=O)Nc3nc(C(=O)NC[C@H](O)CO)cs3)cs2)cs1	-	-	30 µM
CC(C)[C@H](NC(=O)OCc1ccccc1)C(=O)N[C@@H](Cc1ccccc1)C(=O)C(F)(F)C(=O)N1CCc2ccccc2C1	-	-	500 µM
Cn1cc(NC(=O)c2cc(NC(=O)c3cc(NC=O)cn3C)cn2C)cc1C(=O)NCCC(=N)N	-	-	3.5 µM
COC(=O)C(CCCCNC(=O)/C=C/c1cc(O)c(O)c(O)c1)NC(=O)/C=C/c1cc(O)c(O)c(O)c1	-	-	2.4 µM
CN(C)CCCNC(=O)c1csc(NC(=O)c2csc(NC(=O)CCCCCNC(=O)CN(CCN(CC(=O)O)CC(=O)O)CC(=O)O)n2)n1	-	-	860 µM
O=C(/C=C/c1ccc(O)c(O)c1)Oc1ccc2c(N=C=S)cccc2c1	-	C56S	20 µM
O=C1/C(=C/c2cc(O)c(O)c(O)c2)CC(C(=O)O)C/C1=C\c1cc(O)c(O)c(O)c1	-	-	0.2 µM
CNC(=O)c1csc(NC(=O)c2csc(NC(=O)CCCCCN)n2)n1	-	-	70 µM
CC(C)[C@H](NC(=O)OCc1ccccc1)C(=O)N[C@@H](Cc1ccc(OCc2ccccc2)cc1)C(=O)C(F)(F)C(=O)N1CCc2ccccc2C1	-	-	22 µM
[N-]=[N+]=NCc1cccc(C(=O)CC(=O)C(=O)O)c1	-	-	43.6 µM
O=C(/C=C/c1ccc(O)c(O)c1)Oc1ccc2cccc(N=C=S)c2c1	-	C56S	11 µM
CN(C)CCCNC(=O)c1csc(NC(=O)c2csc(NC(=O)c3csc(NC(=O)CCCCCN)n3)n2)n1	-	-	2 µM
COC(=O)c1cc(O)c(O)c(O)c1	-	-	228.5 µM
O=C1C(=O)N(Cc2cccc3cccnc23)c2ccccc21	-	-	1000 µM
CC(C)[C@H](NC(=O)OCc1ccccc1)C(=O)N[C@@H](Cc1ccccc1)C(=O)C(F)(F)C(=O)N1CCOCC1	-	-	500 µM
O=C(/C=C(\O)c1ccccc1Cl)C(=O)N1CCN(C(=O)C(=O)/C=C(\O)c2ccccc2Cl)CC1	-	-	>100 µM
Oc1c(C(=S)NCc2ccc(F)cc2)occc1=S	-	-	64 µM
OC(/C=C/c1ccc(Cl)c(Cl)c1)/C=C/c1ccc(Cl)c(Cl)c1	-	-	>100 µM
COC(=O)C(CCCNC(=O)/C=C/c1ccc(O)c(O)c1)NC(=O)/C=C/c1ccc(O)c(O)c1	-	-	<10 µM
Nc1ccn([C@@H]2O[C@H](COP(=O)(O)O)[C@@H](OP(=O)(O)OC[C@H]3OC[C@@H](n4cnc5c(N)ncnc54)[C@@H]3O)[C@H]2O)c(=O)n1	-	-	>300 µM
CN(C)CCCNC(=O)c1ccc2nc(-c3ccc4nc(-c5ccc(OCCOCCOCCOc6ccc(-c7nc8ccc(-c9nc%10ccc(C(=O)NCCCN(C)C)cc%10[nH]9)cc8[nH]7)cc6)cc5)[nH]c4c3)[nH]c2c1	-	-	14 µM
N#Cc1ccccc1-c1ccc(CN2C(=O)C(=O)c3ccccc32)cc1	-	-	>1000 µM
O=C(NCCCC[C@H](NC(=O)c1cc(O)c(O)c(O)c1)C(=O)O)c1cc(O)c(O)c(O)c1	-	-	2.25 µM
CNC(=O)NC[C@H]1O[C@@H](n2cnc3c(NC(=O)Nc4ccccc4)ncnc32)[C@H](O)[C@@H]1CC(=O)O	NL4-3	-	>10 µM
Cc1cnc2c(ccc3c(C)c(C)c(C)nc32)c1C	-	-	>100 µM
Cc1cc2c(c(O)c1O)C(=O)N(Cc1ccc(F)c(Cl)c1)C2	-	-	111 µM
O=C(NCc1ccc(F)cc1)c1nc[nH]c(=O)c1O	-	-	>100 µM

8 of the rows above, restated:

SMILES	strain	changes	value
CC(=O)/C=C/c1ccc(N=Nc2c(S(=O)(=O)O)cc3cc(NC(=O)Nc4ccc5c(O)c(N=Nc6ccc(/C=C/C(C)=O)cc6)c(S(=O)(=O)O)cc5c4)ccc3c2O)cc1	-	-	2.7 µM
Cn1cc(NC(=O)c2cc(NC(=O)c3cc(NC=O)cn3C)cn2C)cc1C(=O)NCCC(=N)N	-	-	3.5 µM
COC(=O)c1cc(NC(=O)c2nc(NC(=O)c3cc(NC(=O)c4cc(NC(=O)CCCNC(=O)c5nc(NC(=O)c6cc(NC(=O)c7cc(NC(=O)c8nc(NC(=O)CCCN)cn8C)cn7C)cn6C)cn5C)cn4C)cn3C)cn2C)cn1C	-	-	30 µM
[N-]=[N+]=NC[C@H]1O[C@@H](n2cnc3c(N)ncnc32)[C@H](O)[C@@H]1CC(=O)O	NL4-3	-	>10 µM
CN(C)CCCNC(=O)c1csc(NC(=O)c2csc(NC(=O)CCCCCNC(=O)CN(CCN(CC(=O)O)CC(=O)O)CC(=O)O)n2)n1	-	-	860 µM
COc1ccc(C(=O)C2=NS(=O)(=O)c3cc(C)c(Cl)cc3S2)cc1	-	-	30 µM
c1cnc2c(CSc3nc4ccccc4s3)cccc2c1	-	-	>1000 µM
CN(C)CCCNC(=O)c1ccc2nc(-c3ccc4nc(-c5ccc(OCCOCCOCCOc6ccc(-c7nc8ccc(-c9nc%10ccc(C(=O)NCCCN(C)C)cc%10[nH]9)cc8[nH]7)cc6)cc5)[nH]c4c3)[nH]c2c1	-	-	14 µM